Source: patent publication US20160244511A1 (published 2016)
Residue numbers refer to the chain shown, from its start.

B1: AB-28-6 Fab (Fab, V domains shown)
VH: QVQLQESGPGLVRPSETLSLTCAVSGYSISSGMGWGWIRQPPGKGLEWIGSIDQRGSTYYNPSLKSRVTISVDTSKNQFSLKLSSVTAADTAVYYCARDAGHAVDMDVWGKGTTVTVSS
VL: DIQMTQSPSSVSASVGDRVTITCRASQGISRWLAWYQQKPGKAPKLLIYAASSLQSGVPSRFSGSGSGTDFTLTISSLQPEDFATYYCQQGYVFPLTFGGGTKVEIK
B2: AB-28-4 (antibody, V domains shown)
VH: B1 VH with R13K, S28P, S51R, V68A, A103G
VL: B1 VL
B3: AB-28 Fab fragment (Fab, V domains shown)
VH: B1 VH with R13K, A103G
VL: B1 VL
B4: AB-28-12 (antibody, V domains shown)
VH: B1 VH with R13K, G36D, L46R, K65E, S66G, A103G
VL: B1 VL
B5: AB-28-3 Fab (Fab, V domains shown)
VH: B1 VH with R13K, I52V, A103G, V104A
VL: B1 VL
B6: AB-28-9 Fab (Fab, V domains shown)
VH: B1 VH with Q1E
VL: B1 VL
B7: AB-28-7 Fab (Fab, V domains shown)
VH: B1 VH with R13K, G36D, L46R, K65E, S66G, V68A, A103G
VL: B1 VL
B8: AB-28-5 (antibody, V domains shown)
VH: B1 VH with R13K, S51R, I52V, A103G
VL: B1 VL
B9: AB-28-13 (antibody, V domains shown)
VH: B1 VH with R13K, G36D, K65E, S66G, V68A, A103G
VL: B1 VL
B10: AB-28-8 Fab (Fab, V domains shown)
VH: B1 VH with R13K, G36D, S63P, K65E, A103G
VL: B1 VL
B11: AB-28-10 (antibody, V domains shown)
VH: B1 VH with R13K
VL: B1 VL
B12: AB-28-11 (antibody, V domains shown)
VH: B1 VH with R13K, G36D, K65E, S66G, A103G
VL: B1 VL

Molecular target: T1, Staphylococcus aureus alpha-toxin (Hla), USA300 TCH1516 strain
T1 chain: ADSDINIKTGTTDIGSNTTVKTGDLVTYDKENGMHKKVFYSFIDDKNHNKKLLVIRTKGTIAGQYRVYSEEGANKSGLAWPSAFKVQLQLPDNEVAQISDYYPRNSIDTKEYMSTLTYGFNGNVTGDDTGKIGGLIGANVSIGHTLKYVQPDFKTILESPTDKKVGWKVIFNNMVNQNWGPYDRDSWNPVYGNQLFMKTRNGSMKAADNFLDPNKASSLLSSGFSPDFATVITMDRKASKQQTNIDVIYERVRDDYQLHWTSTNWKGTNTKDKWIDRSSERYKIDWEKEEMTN

Binder | Kd
B1 | < 2 pM
B2 | 23 pM
B3 | < 2 pM
B4 | < 2 pM
B5 | 37 pM
B6 | < 2 pM
B7 | < 2 pM
B8 | 30 pM
B9 | < 2 pM
B10 | < 2 pM
B11 | < 2 pM
B12 | < 2 pM
